Experimental findings from publication PMC8133395 (Cell reports, 2021) are described below.

Test [1] concerns the target EBOV GP (variant Makona) displayed on Jurkat cells (Zaire ebolavirus, Makona variant …, UniProt A0A0E3TM45, strain). To be noted: one partner purified.
The target in test [2] is Cleaved EBOV GP (GPCL) displayed on Jurkat cells (Zaire ebolavirus, Makona variant …, UniProt A0A0E3TM45, strain). To be noted: one partner purified.

B1: EBOV-515 (recombinant IgG1), Alexa Fluor 647-labelled (antibody, V domains shown)
VH: QVQLHESGPGLVKPSQTLSLTCTVSGGSINSAGYYWTWIRQHPGKGLEWIGYIDYTGRTYYNPSLESRVIISIDTSKNHFSLRLTSVSAADTAVYYCARESSWVSELGRDNWGQGTLVTVSS
VL: EIVMTQSPATLPVSPGEGATLSCRASQSVFTNLAWYQQKPGQAPRLLIYDASTRATGIPARFSGSGSGTEFTLTISSLQSEDFAVYYCQQYNNWPRTYGQGTRVEVK
Turning to B1, the binding result in test [1] and in test [2] was “binds” each time.

B2: EBOV-442 (recombinant IgG1) (antibody, V domains shown)
VH: EVQLVESGGGLVKPGGSLRLSCTGSGGTGFTFKYAGMSWVRQAPGKGPEWIGRIKSRIDGGTTDYAAPVKDRFIVSRDDSRNTLYLQMNSLKTEDTAVYYCATGSGKGPSASFGESYYYYDFINVWGKGTTVTVSS
VL: ESVLTQSPGTLSLSPGERATLSCRASQSISRKYLAWYQQKPGQAPRLLIYGSSSRATGIPDRFSGSGSGTDFTLTISRLEPEDFAVYYCHQYESSPWTFGQGTKVEIK
notes: IgG1; source: ExpiCHO, transiently transfected, purified (HiTrap MabSelect Sure)
As for B2, the binding result in test [1] and in test [2] was “binds” in each case.
